From patent publication US7939064B2 (priority 2006, dated 2011)

Assays:
[1] = tested on: organotypic hippocampal slices; assay: Glutamate insult in organotypic hippocampal slice culture, propidium iodide uptake; conditions: glutamate 5 mM, 3 hours
[2] = tested on: organotypic hippocampal slices; conditions: NsPLA2 2 ug/ml during insult period (90 mins); CA2/3 region
[3] = tested on: organotypic hippocampal slices; assay: LDH cytotoxicity assay in glutamate-insulted organotypic hippocampal culture
[4] = tested on: organotypic hippocampal slices; assay: NMDA, KA and AMPA insult in organotypic hippocampal culture; conditions: 3 hr, NsPLA2 2 ug/ml concurrently

B1: NsPLA2 (protein)
chain: NLYQFKNMVQCTVPNRSWWHFADYGCYCGRGGSGTPVDDLDRCCQIHDNCYNEAEKISRCWPYFKTYSYECSQGTLTCKGGNNACAAAVCDCDRLAAICFAGAPYNDNNYNIDLKARCQ
modifications: Naja sputatrix
neuroprotection in glutamate induced neuronal injury compared with positive control MK801 [1]: higher than that produced by the positive control | protection (neuroprotection in OGD) [2]: 95% | cytotoxicity (LDH assay) compared to untreated control with glutamate insult [3]: reduced cytotoxicity | protection of the CA1 region ([4]; 10 uM AMPA): 30% | protection of the CA1 region ([4]; 20 uM NMDA): 70% | neuroprotection at the CA3 region ([4]; 100 uM KA): 50%
